Results reported in US10028938B2, “Antiviral agents and uses thereof” (Griffith University, priority 2014, dated 2018).

Amino acid sequences for entries named in this document (tags omitted).
UniProt P08492, whole entry: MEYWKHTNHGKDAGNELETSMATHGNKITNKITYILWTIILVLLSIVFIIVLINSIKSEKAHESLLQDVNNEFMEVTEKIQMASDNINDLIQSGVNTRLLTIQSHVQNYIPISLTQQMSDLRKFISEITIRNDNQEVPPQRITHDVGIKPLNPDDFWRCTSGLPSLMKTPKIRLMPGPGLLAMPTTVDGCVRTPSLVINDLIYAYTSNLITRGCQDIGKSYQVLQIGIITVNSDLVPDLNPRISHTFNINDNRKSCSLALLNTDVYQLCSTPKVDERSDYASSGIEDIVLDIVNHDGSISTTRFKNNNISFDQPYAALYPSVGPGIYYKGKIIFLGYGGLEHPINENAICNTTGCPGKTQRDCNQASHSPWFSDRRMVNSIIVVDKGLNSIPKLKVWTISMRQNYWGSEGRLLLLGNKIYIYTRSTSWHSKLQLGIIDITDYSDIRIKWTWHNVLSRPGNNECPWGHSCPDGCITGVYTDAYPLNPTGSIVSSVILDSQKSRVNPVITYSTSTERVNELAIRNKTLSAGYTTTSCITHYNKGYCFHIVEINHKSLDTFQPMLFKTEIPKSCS

Experiments:
hPIV-3 HN = hPIV-3 HN (Human parainfluenza 3 virus, UniProt P08492); assay: Neuraminidase inhibition (NI) assay with purified hPIV-3 and MUN substrate; conditions: read-out: NI hPIV-3 IC50; tested form: Na salt
hPIV-3 = assay: In situ ELISA virus growth inhibition; conditions: read-out: Cell-based ELISA IC50, Table 4, A549 cells, tested form: Na salt

Structure (SMILES)	IC50 (hPIV-3 HN)	IC50 (hPIV-3)
COCc1cn([C@H]2C=C(C(=O)O)O[C@@H]([C@H](O)[C@H](O)CO)[C@@H]2NC(=O)C(C)C)nn1 [Compound 9, Sodium 2,6-anhydro-3,4,5-trideoxy-5-isobutyramido-4-(4-methoxymethyl-[1,2,3,]triazol-1-yl)-D-glycero-D-galacto-non-2-enonate]	12 µM	80 µM
CC(C)C(=O)N[C@H]1[C@H]([C@H](O)[C@H](O)CO)OC(C(=O)[O-])=C[C@@H]1n1cc(-c2ccccc2)nn1.[Na+] [Compound 10, Sodium 2,6-anhydro-3,4,5-trideoxy-5-isobutyramido-4-(4-phenyl-[1,2,3,]triazol-1-yl)-D-glycero-D-galacto-non-2-enonate]	2.5 µM	10 µM

Structures were worked out from names or drawings and are uncertain.
